For at least one entry, the source does not settle the construct or the ends of the probe. Protein sequences can lack the tags named with them.
Target: T1, rPruR (AraC/XylS family regulator) (Pseudomonas aeruginosa PAK) (UniProt Q9I5F8)
T1 sequence (looked up, limits assumed): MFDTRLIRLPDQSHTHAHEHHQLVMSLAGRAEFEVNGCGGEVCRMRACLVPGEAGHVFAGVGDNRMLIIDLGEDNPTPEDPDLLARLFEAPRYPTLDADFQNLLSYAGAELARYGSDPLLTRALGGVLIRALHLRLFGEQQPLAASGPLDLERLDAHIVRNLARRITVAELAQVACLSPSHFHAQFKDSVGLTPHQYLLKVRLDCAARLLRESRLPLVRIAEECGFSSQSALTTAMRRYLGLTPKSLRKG
Assay: EMSA
Settings: 50 mM Tris pH 7.9, 50 mM NaCl, 0.5 mM EDTA, 10% glycerol, 1% NP-40, 25 C, 10 min; 50 ng DNA, 2 ug rPruR in 20 ul; 8% native PAGE in TBE on ice (EMSA); recombinant protein; protein details: His tag (pET-28a(+)); probe letters rebuilt from the primers and the genome

“ATCGGCGTATTTATTGGGATGTTATATTATTTCTTTTTGTGTCGGTAGACCCGCGTAGCCACTCTGCATGGCGTCGTGCCGACGTGCAGCGGCAATGTCCGCATGCCTGCCGGCGAAGAGGAACGGGAAAGTTCCGCAGCCAGGAGTTTTCCGCAAAAACTCCAGAGTCTTTCGCAAGAATCGCCCCTCTCGCAGCCACTACATTCCGCTATCCGCTGGTGCCTCGCGCCGGCGGAATGGGCCTGACCCATACTGATCCGTATTCCCGCGCCACAGGACGTGCCGCGCCGCCGGCACAACCCGCCGGCGGCGGTGCCCCGGGCAATGGACGCCTGGCCGGACTTCTTTCAATAACAATGGCTCCACAAGAGGAGGGCGTG (double strand) [putA promoter F2]”: binds.
“CACGCCCTCCTCTTGTGGAGCCATTGTTATTGAAAGAAGTCCGGCCAGGCGTCCATTGCCCGGGGCACCGCCGCCGGCGGGTTGTGCCGGCGGCGCGGCACGTCCTGTGGCGCGGGAATACGGATCAGTATGGGTCAGGCCCATTCCGCCGGCGCGAGGCACCAGCGGATAGCGGAATGTAGTGGCTGCGAGAGGGGCGATTCTTGCGAAAGACTCTGGAGTTTTTGCGGAAAACTCCTGGCTGCGGAACTTTCCCGTTCCTCTTCGCCGGCAGGCATGCGGACATTGCCGCTGCACGTCGGCACGACGCCATGCAGAGTGGCTACGCGGGTCTACCGACACAAAAAGAAATAATATAACATCCCAATAAATACGCCGATCCGACCCCGTCGCCCTTCCTCCGGGAAGGGCCTGGGTTCGCTTTGGCCTGAAAAAAGTCCGACCCATGACCATGGAGCCCGCAATGTCCTCTTCCGGCCTTTTCCCTTCCCGTCCGCTCTGGCCTCTCACGCCACTGGCGCTGGCCTGCCTGATTGTTTCGGGGGAA (double strand) [putA promoter F1]”: binds.

From article PMC5879082, “PutA Is Required for Virulence and Regulated by PruR in Pseudomonas aeruginosa”
